One test concerns the target tetanus toxoid (UniProt P04958 2-1315). As to the kind of experiment: Western blot.
In test [1] the target is T1, Clostridium difficile toxin B (whole) (Clostridium difficile, UniProt P18177 2-2366).
T1 construct: mature
As to the kind of experiment: Western blot. In general terms: Immunoblotting shows a protein as a band on a membrane.

B1: CAN20G1 (antibody, V domains shown)
VH: QIQLVQSGPELKKPGETVKISCKASGYTFTNDGMNWVKQAPGKGLKWMGWINTNTGEPTYVEEFKGRFAFSLETSASTAYLQINNLKNEDTATYFCYVNYDYYTMDCWGQGTSVTVSS
VL: QVVLTQSPAIMSASLGERVTMTCTASSSVISSYLHWYQQKPGSSPKLWIYSTSTLASGVPARFSGSGSGTSYSLTISSMEAEDAATYYCLQYHRSPRTFGGGTKLEIK
Take B1: the binding result in the test with tetanus toxoid is recorded as “no binding (tested: 1 µg/ml)”.

B2: CAN20G2 (antibody, V domains shown)
VH: QIQLVQSGPEVKKPGETVKISCKASGYTFTNQGMNWVKQAPGKGLKWMGWINTNTGEPTYTEEFKGRFAFSLETSASTAYLQINNLKNEDTATYFCYVNYDYYTMDFWGQGTSVTVSS
VL: QVVLTQSPAIMSASLGDRVTMTCTASSSVISTYLHWYQQKPGSSPKLWIYSTSTLASGVPPRFSGSGSGTSYSLTISSMEAEDAATYYCLQYHRSPRTFGGGTKLEIK
notes: also called muCAN20G2; muCAN20G2-2-1
For the molecule B2, the binding result (in test [1]; with tetanus toxoid) was “no binding (tested: 1 µg/ml)” in each case.

B3: CAN20G5 (antibody, V domains shown)
VH: QIQLVQSGPELKKPGETVKISCKASGYSFTNSGMNWVKEAPGKGLKWMGWINTNTGEPTYAEEFMGRFAFSLETSASTAYLQINNLKNEDTATYFCYVNYDYYTIDYWGQGTSVTVSS
VL: QIVLTQSPAIMSASLGERVTMTCTASSSVYSTYLHWYQQKPGSSPKLWIYSTSNLASGVPARFSGSGSGTSYSLTISSMEAEDAATYYCHQYHRSPRTFGGGTKLEIK
As to B3, in the test with tetanus toxoid, the binding result is “no binding (tested: 1 µg/ml)”.

B4: CAN20G8 (antibody, V domains shown)
VH: QIQLVQSGPELKKPGETVKISCKASGYAFTNDGMNWVKQAPGKGLKWMGWINTNTGEPTYAEEFKGRFAFSLETSASTAYLQINNLKNEDTATYFCYVNYDYYTMDCWGQGTSVTVSS
VL: QVVLTQSPAIMSASLGERVTMTCTASSSVISSYLHWYQQKPGSSPKLWIYSTSILASGVPARFSGSGSGTSYSLTISSMEAEDAATYYCLQYHRSPRTFGGGTKLEIK
Regarding B4, in the test with tetanus toxoid, the binding result is listed as “no binding (tested: 1 µg/ml)”.

Values taken from patent US20170051047A1 (CANGENE, published 2017).
